In patent publication US10561143B2, “Fungicidal composition having synergistic effect” (JIANGSU HUIFENG AGROCHEMICAL CO., LTD., priority 2013, dated 2020):
Read-outs that look alike come from different tables or passages of the source.

How the values were obtained:
[1] = test system: downy mildew pathogens of grape; test: Toxicity test on downy mildew pathogens of grape (disease index and control effect on whole grape plants, EC50 and co-toxicity coefficient); conditions: Table 1; (EC50 of standard/EC50 of test agent)*100, standard benziothiazolinone
[2] = Table 18, standard benziothiazolinone
[3] = Table 19, standard benziothiazolinone

O=c1[nH]sc2ccccc12 [Benziothiazolinone]
ATI (actual toxicity index) (rust pathogens of wheat; Table 17, standard benziothiazolinone): 100 | ATI (actual toxicity index) (rust pathogens of wheat; [2]): 100 | ATI (actual toxicity index) (rust pathogens of wheat; [3]): 100 | ATI (actual toxicity index) [1]: 100

CC(C)OC(=O)N[C@H](C(=O)N[C@H](C)c1nc2ccc(F)cc2s1)C(C)C [Benthiavalicarb-isopropyl]
ATI (actual toxicity index) [1]: 82.98

OC(Cc1ccccc1Cl)(Cn1nc[nH]c1=S)C1(Cl)CC1 (stereo not shown) [Prothioconazole]
ATI (actual toxicity index) (rust pathogens of wheat; in vivo): 103.13

O=[N+]([O-])c1cc(C(F)(F)F)c(Cl)c([N+](=O)[O-])c1Nc1ncc(C(F)(F)F)cc1Cl [Fluazinam]
ATI (actual toxicity index) (rust pathogens of wheat; in vivo): 94.23

Cl.O=c1[nH]sc2ccccc12 [Benziothiazolinone hydrochloride]
ATI (actual toxicity index) (rust pathogens of wheat; Table 16, standard printed as benziothiazolinone hydrochloride): 100

O=C(NCc1ncc(C(F)(F)F)cc1Cl)c1c(Cl)cccc1Cl [Fluopicolide]
ATI (actual toxicity index) (rust pathogens of wheat; [3]): 103.12

CO/C=C(/C(=O)OC)c1ccccc1COc1cccc(C(F)(F)F)n1 [Picoxystrobin]
ATI (actual toxicity index) (rust pathogens of wheat; [2]): 90.92
